Pooled drug test results. Numbers come from NIAID ChemDB, via PubChem.

ICn: concentration for n% inhibition. Neighbouring rows are from separate reports. An empty or dashed field is not shown. Inhibition is in % at the dose shown (toxicity tests: loss of growth or viability). ECn: concentration that inhibits the pathogen or its effect by n%.

| SMILES | species | target | test | dose | strain | cell line | endpoint | result |
|---|---|---|---|---|---|---|---|---|
| O=CNc1ccc(C[C@H](NC(=O)c2ccc3c(c2)nc(-c2ccoc2)n3C2CCCCC2)C(=O)O)cc1 | Poliovirus | RNA-dependent RNA polymerase | target | - | - | - | IC50 | >25 µM |
| CCCCCCCCCCCCC/C=C/[C@@H](O)[C@H](CO[C@@H]1O[C@H](CO)[C@H](O)[C@H](OS(=O)(=O)O)[C@H]1O)NC(=O)CCCCCCCCCCCCCCCCCCCCCCC | Influenza A virus | Sialidase | target | 200 µM | Influenza A/Kumamoto/55/76 (H3N2) | - | inhibition | 99.3% |
| Nc1ccn(C[C@@H](CO)OCP(=O)(O)O)c(=O)n1 | Monkeypox virus | - | culture | - | - | LLC-MK2 | EC50 | 3.7 µg/mL |
| NC(=O)c1ncn([C@@H]2O[C@H](CO)[C@@H](O)[C@H]2O)n1 | Rift valley fever virus | - | culture | - | Zagazig 501 | VERO 76 | EC50 | 80 µg/mL |
| COc1ccc(C(NC(=O)c2ccc3c(c2)nc(-c2cccc(O)c2)n3C2CCCCC2)C(=O)O)cc1OC | Poliovirus | RNA-dependent RNA polymerase | target | - | - | - | IC50 | >25 µM |
| CCCCCCCCCCCCCCCCCC(=O)OC[C@@H](COP(=O)(O)OCCNCCO[C@@]1(C(=O)O)O[C@@H]([C@H](O)[C@H](O)CO)[C@H](NC(C)=O)[C@@H](O)[C@H]1F)OC(=O)CCCCCCCCCCCCCCCCC | Influenza A virus | Sialidase | target | - | H7N2 A/DUCK/47/5/76 | - | IC50 | 150 µM |
| O=c1[nH]cnc2c1ncn2[C@@H]1C=C(CO)[C@@H](O)[C@H]1O | Monkeypox virus | - | culture | - | MPX | MK2 | EC50 | >100 µg/mL |
| CCCCCCCCCCCCCCCCCC(=O)OC[C@@H](COP(=O)(O)OCCNCCO[C@@]1(C(=O)O)O[C@@H]([C@H](O)[C@H](O)CO)[C@H](NC(C)=O)[C@@H](O)[C@H]1F)OC(=O)CCCCCCCCCCCCCCCCC | Influenza A virus | Sialidase | target | - | H6N1 A/DUCK/HK/13/76 | - | IC50 | 180 µM |
| NC(=O)[C@H](Cc1c[nH]c2ccc(NC(=O)C(=O)NO)cc12)NC(=O)c1ccc2c(c1)nc(-c1ccoc1)n2C1CCCCC1 | Poliovirus | RNA-dependent RNA polymerase | target | - | - | - | IC50 | >25 µM |
| COc1c(C)c2c(c(O)c1C/C=C(\C)CCC(=O)O)C(=O)OC2 | Monkeypox virus | - | culture | - | - | VERO 76 | EC50 | 0.8 µM |
| O=C(O)c1cccc(NC(=O)N2CCC(NC(=O)c3ccc4c(c3)nc(-c3ccoc3)n4C3CCCCC3)C2)c1 | Poliovirus | RNA-dependent RNA polymerase | target | - | - | - | IC50 | >25 µM |
| Nc1ncnc2c1ncn2C[C@@H](CO)OCP(=O)(O)O | Variola virus | - | culture | - | Isolate Bangladesh | LLC-MK2 | EC50 | 6.1 µg/mL |
| Nc1ccn(C[C@@H](CO)OCP(=O)(O)O)c(=O)n1 | Monkeypox virus | - | culture | - | - | VERO 76 | EC50 | 96 µM |
| Nc1ccn([C@@H]2C=C(CO)[C@@H](O)[C@H]2O)c(=O)n1 | Variola virus | - | culture | - | BSH | VERO | EC50 | >100 µg/mL |
| Nc1ccn(C[C@H]2COP(=O)(O)CO2)c(=O)n1 | Variola virus | - | culture | - | Isolate Horn | VERO | EC50 | 12 µg/mL |
| Cc1cc(-c2nc3cc(C(=O)N[C@H](C(=O)O)c4c[nH]c5ccc(O)cc45)ccc3n2C2CCCCC2)on1 | Poliovirus | RNA-dependent RNA polymerase | target | - | - | - | IC50 | >25 µM |

The first 2 rows once more:

SMILES,species,target,test,dose,strain,cell line,endpoint,result
O=CNc1ccc(C[C@H](NC(=O)c2ccc3c(c2)nc(-c2ccoc2)n3C2CCCCC2)C(=O)O)cc1,Poliovirus,RNA-dependent RNA polymerase,target,-,-,-,IC50,>25 µM
CCCCCCCCCCCCC/C=C/[C@@H](O)[C@H](CO[C@@H]1O[C@H](CO)[C@H](O)[C@H](OS(=O)(=O)O)[C@H]1O)NC(=O)CCCCCCCCCCCCCCCCCCCCCCC,Influenza A virus,Sialidase,target,200 µM,Influenza A/Kumamoto/55/76 (H3N2),-,inhibition,99.3%